Assay results as given in PMC9247160, “SARS-CoV-2 Omicron Variants Reduce Antibody Neutralization and Acquire Usage of Mouse ACE2” (2022).

Key:
[1] = molecular target: SARS-CoV-2 Omicron BA.1.1 spike protein (SARS-CoV-2) (UniProt P0DTC2); assay: flow cytometry on cells
[2] = molecular target: SARS-CoV-2 Omicron BA.1 spike protein (SARS-CoV-2) (UniProt P0DTC2); assay: flow cytometry on cells
[3] = molecular target: SARS-CoV-2 Omicron BA.2 spike protein (SARS-CoV-2) (UniProt P0DTC2); assay: flow cytometry on cells
[4] = molecular target: SARS-CoV-2 Omicron BA.1.1 spike protein (SARS-CoV-2) (UniProt P0DTC2)
[5] = molecular target: SARS-CoV-2 Omicron BA.1 spike protein (SARS-CoV-2) (UniProt P0DTC2)
[6] = molecular target: SARS-CoV-2 Omicron BA.2 spike protein (SARS-CoV-2) (UniProt P0DTC2)
[7] = molecular target: SARS-CoV-2 spike protein, original wildtype strain Wuhan-Hu-1 (SARS-CoV-2) (UniProt P0DTC2)

Substance	fold change of spike binding (nTFI) relative to D614G spike [1] [fold]	fold change of spike binding (nTFI) relative to D614G spike [2] [fold]	fold change of spike binding (nTFI) relative to D614G spike [3] [fold]	IC50 of neutralisation of BA.1.1 pseudovirus, HeLa-hACE2 cells [4] [µg/mL]	IC50 of neutralisation of BA.1.1 pseudovirus, Huh7 cells [4] [µg/mL]	IC50 of neutralisation of BA.1 pseudovirus, HeLa-hACE2 cells [5] [µg/mL]	IC50 of neutralisation of BA.1 pseudovirus, Huh7 cells [5] [µg/mL]	IC50 of neutralisation of BA.2 pseudovirus, HeLa-hACE2 cells [6] [µg/mL]	IC50 of neutralisation of BA.2 pseudovirus, Huh7 cells [6] [µg/mL]	IC50 of neutralisation of WT pseudovirus, HeLa-hACE2 cells [7] [ng/mL]	IC50 of neutralisation of WT pseudovirus, Huh7 cells [7] [ng/mL]
COV2-2196 (antibody)	1.6	1.5	-1.3	19.2	10.5	2.05	9.98	17.5	9.09	1	7
AZ combo (COV2-2196 + COV2-2130)	1.1	1.2	1	3.49	1.75	0.37	0.6	0.026	0.009	4	5
REGN Combo (REGN10933 + REGN10987)	-6.8	-7	-1.3	13.9	3.52	3.13	12	0.794	0.264	3	5
CB6 (antibody)	< -200	< -200	< -200	> 100	> 100	> 100	> 100	> 100	> 100	37	60
